# Data: PubChem BioAssay AID2306 (GlaxoSmithKline (GSK), 2010)
# The entries are a selection whose mix differs from that of the whole data set. Active and inactive are the calls of the source. How the calls were made is not given here.
# Test: inhibition of 3D7 malaria parasite growth – strain 3D7 (AID 2306);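 further: 0% = DMSO wells and 100% = chloroquine plus artemisinin control wells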
# Conditions: P. falciparum 3D7 erythrocytic growth, LDH absorbance, 72 h; at 2 µM; active compounds read high
row,Structure (SMILES),growth inhibition
1,Cn1c(=O)n(C2CCN(CCCC(c3ccc(F)cc3)c3ccc(F)cc3)CC2)c2ccccc21,active: 92%
2,CC(C)(C)c1cc2cc(N(C(=O)c3ccc(C(F)(F)F)cc3)C3CCN(Cc4ccccc4)CC3)ccc2[nH]1,active: 90%
